# Values from PubChem BioAssay AID504761 (Drosophila RNAi Screening Center, 2011)
# Screen: 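Genome-wide fly cell screen for genes dengue virus requires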 (primary screen)
# Cells: D.Mel-2 cells from Drosophila
# Reagent: long dsRNA against Drosophila genes
# Challenge: infection with dengue virus type 2; dose and infection time not stated
# Measured: 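Cells stained for dengue envelope protein and imaged; percent of infected cells per well on duplicate plates, ranked by infection, with stained nuclei counted for cell number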
# Direction: infection score: higher = more virus-infected cells; cell count: higher = more cells in the well
# Rule for the call: 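Low infection ranks in the two replicates (chance level up to 0.065) followed by a retest with a 1.5-fold or larger significant decrease, p below 0.05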
# Meaning of the calls: active = confirmed: knock-down lowers infection; inactive = not picked or not confirmed
# In all, the deposit lists about 22,000 reagents; shown is an unselected part of those that have a named target and a result. In the full data, 116 (0.52%) were called active. 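Calls depend on retest data that are not deposited; infection was ranked per plate without normalising between plates; the unit of the infection score is not given.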 Raw values are not corrected between plates. The record does not give: the amount of reagent, the time to read-out.
gene,amplicon,"infection score, replicate 1","infection score, replicate 2","cell count, replicate 1","cell count, replicate 2",outcome
RhoGEF4 (GeneID 38806),DRSC11011,15.8,7.24,4931,6037,inactive
RhoGEF4 (GeneID 38806),DRSC26016,7.57,11.2,5763,5698,inactive
luna (GeneID 2768719),DRSC05253,2.51,3.28,6102,5790,inactive
luna (GeneID 2768719),DRSC24992,4.99,1.5,6056,6390,inactive
CG42319 (GeneID 36473),DRSC06645,16.8,4.96,5627,6256,inactive
CG42319 (GeneID 36473),DRSC06646,9.51,29.2,1599,5823,inactive
CG42319 (GeneID 36473),DRSC22426,2.39,7.81,6069,6726,inactive
CG42319 (GeneID 36473),DRSC26059,2.98,1.67,6237,6216,inactive
E(spl)m8-HLH (GeneID 43161),DRSC16654,1.16,4.12,6029,6575,inactive
E(spl)m8-HLH (GeneID 43161),DRSC28065,16.3,5.67,5129,6910,inactive
Su(var)3-3 (GeneID 40217),DRSC10250,7.64,7.01,5878,6987,inactive
Su(var)3-3 (GeneID 40217),DRSC24846,2.22,4.2,6610,6504,inactive
TTLL12 (GeneID 35732),DRSC06555,6.85,19.8,3826,2172,inactive
tws (GeneID 47877),DRSC12767,4.64,6.61,5533,5736,inactive
tws (GeneID 47877),DRSC17092,16.5,35.4,1929,2359,inactive
tws (GeneID 47877),DRSC27776,18.2,8.96,4824,6113,inactive
CG4669 (GeneID 38608),DRSC10440,5.75,6.98,7014,6416,inactive
eIF3d2 (GeneID 41475),DRSC15651,13.5,17.6,6384,6707,inactive
CG4313 (GeneID 31169),DRSC18514,8.68,2.1,5897,6385,inactive
CG4313 (GeneID 31169),DRSC24627,2.69,5.2,6976,5866,inactive
CG6479 (GeneID 39930),DRSC10647,4.43,4.55,6615,6526,inactive
L2HGDH (GeneID 35156),DRSC02082,9.59,6.87,6446,6418,inactive
L2HGDH (GeneID 35156),DRSC25864,1.27,4.21,6198,6173,inactive
CG3534 (GeneID 42047),DRSC15494,14.9,5.1,5524,6769,inactive
CG3534 (GeneID 42047),DRSC26023,3.83,1.51,5763,6228,inactive
dom (GeneID 45655),DRSC04558,18.6,18.2,5606,4031,inactive
dom (GeneID 45655),DRSC04559,12,24.8,5078,5125,inactive
dom (GeneID 45655),DRSC29669,6.29,,1128,340,inactive
CG6106 (GeneID 32816),DRSC19971,37.6,7.45,5685,5569,inactive
CG6106 (GeneID 32816),DRSC29276,7.92,12.8,2688,6505,inactive
RpL39 (GeneID 37849),DRSC04651,5.23,0.75,3806,402,inactive
Buffy (GeneID 36251),DRSC05957,5.76,12.4,6633,6609,inactive
CG10165 (GeneID 35242),DRSC02017,11.8,15.2,6609,6595,inactive
ND-MNLL (GeneID 31697),DRSC18159,4.96,9.05,5682,4754,inactive
CG16786 (GeneID 37856),DRSC04281,2.34,9.94,6278,4255,inactive

A stretch from the list above:
gene,amplicon,"infection score, replicate 1","infection score, replicate 2","cell count, replicate 1","cell count, replicate 2",outcome
dom (GeneID 45655),DRSC29669,6.29,,1128,340,inactive
CG6106 (GeneID 32816),DRSC19971,37.6,7.45,5685,5569,inactive
CG6106 (GeneID 32816),DRSC29276,7.92,12.8,2688,6505,inactive

Further entries follow:
gene,amplicon,"infection score, replicate 1","infection score, replicate 2","cell count, replicate 1","cell count, replicate 2",outcome
CG30022 (GeneID 36233),DRSC22405,1.25,3.46,6236,6594,inactive
park (GeneID 40336),DRSC11618,8.34,7.93,6571,6280,inactive
MTF-1 (GeneID 39089),DRSC11217,14.1,16.8,4591,3060,inactive
MTF-1 (GeneID 39089),DRSC21341,1.79,4.47,5259,6002,inactive
CG4278 (GeneID 34970),DRSC02741,26.4,18,5680,6520,inactive
lili (GeneID 42956),DRSC14143,5.22,1.35,6359,74,inactive
lili (GeneID 42956),DRSC29667,,0.25,377,406,inactive
CG10132 (GeneID 35239),DRSC02013,16.4,10.1,6582,5885,inactive
CG10132 (GeneID 35239),DRSC27890,17,7.25,6176,6497,inactive
CG12998 (GeneID 32710),DRSC19518,0.78,2.85,6790,6177,inactive
Smyd4-3 (GeneID 36234),DRSC07041,20.2,18.1,5550,6476,inactive
Smyd4-3 (GeneID 36234),DRSC28851,16.7,3.87,4521,1034,inactive
Ace (GeneID 41625),DRSC14100,5.9,13.2,5920,5860,inactive
Ace (GeneID 41625),DRSC25364,16.1,32.3,3715,3577,inactive
Vajk3 (GeneID 34812),DRSC01883,16.1,16.6,5847,5922,inactive
Vajk3 (GeneID 34812),DRSC25405,0.86,5.66,5841,6079,inactive
CG9281 (GeneID 32508),DRSC20179,0.88,8.55,6917,6574,inactive
CG9281 (GeneID 32508),DRSC24522,9.84,8.73,6789,6079,inactive
CG31388 (GeneID 41355),DRSC15254,4.28,3.35,6513,6305,inactive
Ilp8 (GeneID 39909),DRSC10076,2.12,1.95,6335,6860,inactive
stau (GeneID 37065),DRSC07698,7.32,12.4,6629,6475,inactive
mAChR-A (GeneID 37892),DRSC04702,4.41,9.8,6433,5580,inactive
mAChR-A (GeneID 37892),DRSC28262,21.3,21.6,5710,6381,inactive
